Literature values, collected in patent publication US20020035738A1, “Plant protection method” (priority 1996, published 2002).

Test system: Phytophthora infestans
Settings: in vivo; cited from earlier work

CC/C=C\C[C@H]1C(=O)CC[C@@H]1CC(=O)O [jasmonic acid]
resistance against the late blight fungus Phytophthora infestans: induces resistance
